Source: ChEMBL document CHEMBL1122420, “Parasympatholytic (anticholinergic) esters of the isomeric 2-tropanols. 2. Non-glycolates” (J Med Chem, 1983)

System: Mus musculus
Assay: LD50 in mice following i.v. administration.
Assay type: organism-based
Details: in vivo, iv

## COc1cc(C(=O)OC2CN3CCC2CC3)cc(OC)c1OC (stereo unspecified)
  LD50: 18 mg/kg
